Here are results for 6 compounds from PMC12242654, “Design, Synthesis, and In Vitro Evaluation of the Leishmanicidal Activity of New Aromatic Symmetrical 1,4-Disubstituted 1,2,3-Bistriazoles” (ACS Omega, 2025).

The test system of series [1] is promastigote forms of L. amazonensis. As to the kind of experiment: Leishmanicidal activity against promastigote forms of L. amazonensis (resazurin). Format: cell-based, Leishmania amazonensis. Particulars: for SI (human) proma: CC50 human fibroblasts / IC50 promastigote; for SI (murine) proma: CC50 murine macrophage / IC50 promastigote. On the procedure:
Promastigotes of L. amazonensis (MHOM/BR/71973/M2269) were grown on 24-well plates in Schneider’s Drosophila medium (Sigma, USA) supplemented with 10.0% (v/v) heat-inactivated fetal bovine serum and 1.0% penicillin (10000 UI mL^–1)/streptomycin (10.0 mg mL^–1) (Sigma, USA). Cells were harvested in the log phase, suspended in a fresh medium, counted in Neubauer’s chamber, and adjusted to a concentration of 1 × 10^6 cells mL^–1 using 24-well plates. The compounds were added to promastigote cultures (1 × 10^6 cells mL^–1) in the range of 0.10–40.00 μg mL^–1, solubilized in dimethyl sulfoxide (DMSO) (0.6%, v/v in all wells), and incubated at 25 °C. After 72 h of incubation, resazurin was used to detect cellular metabolic activity for the determination of 50.0% inhibitory growth concentration (IC50-promastigote). All tests were performed in triplicate at three different times, and amphotericin B (Sigma) was used as the reference drug.

The test system of series [2] is amastigote forms of L. amazonensis. The experiment in a line: Leishmanicidal activity against intracellular amastigote forms of L. amazonensis in murine peritoneal macrophages. Format: cell-based, Leishmania amazonensis. Particulars: for SI (human) ama: CC50 human fibroblasts / IC50 amastigote; for SI (murine) ama: CC50 murine macrophage / IC50 amastigote. On the procedure: To evaluate the leishmanicidal activity in amastigotes, murine peritoneal macrophages were used and maintained in RPMI-1640 medium at 37 °C and 5% CO2 in 24-well plates. After 24 h, the nonadherent macrophages were removed, and these cells were infected with Leishmania (L.) amazonensis promastigotes in the stationary phase of the proliferation curve at a ratio of 10:1. The day after infection, the noninternalized parasites were removed, and the compounds to be evaluated were added at concentrations of 40, 10, 5, and 0.1 μg mL^–1 and incubated for 72 h at 37 °C and 5% CO2; they were then fixed in methanol and stained with 10% Giemsa (MERCK) for subsequent analysis by light microscopy. To assess the effect of the compounds, the number of amastigotes/macrophages and the number of infected macrophages were evaluated. The percentage of infected cells was considered to illustrate the results since these are expressed as CI50-amastigote. ,

Turning to `O=C(c1ccccc1)c1cn(CC(O)Cn2cc(C(=O)c3ccccc3)nn2)nn1` [compound 10, ((2-Hydroxypropane-1,3-diyl)bis(1H-1,2,3-triazole-1,4-diyl))bis(phenylmethanone)], in series [1], the “SI (human) proma” value is recorded as 12.87 and the “SI (murine) proma” value came to 8.69. Moreover, in series [2], the “SI (human) ama” value worked out at 8.3 and the “SI (murine) ama” value stood at 5.61.
On the same counts, the results for `C[C@@H]1[C@H](O)[C@@H](C)/C=C/C=C/C=C/C=C/C=C/C=C/C=C/[C@H](O[C@@H]2O[C@H](C)[C@@H](O)[C@H](N)[C@@H]2O)C[C@@H]2O[C@](O)(C[C@@H](O)C[C@@H](O)[C@H](O)CC[C@@H](O)C[C@@H](O)CC(=O)O[C@H]1C)C[C@H](O)[C@H]2C(=O)O` [amph B, amphotericin B, reference compound] are 16.39, 19.35, 12.07 and 14.26.
With `OC(Cn1cc(C(O)c2ccccc2)nn1)Cn1cc(C(O)c2ccccc2)nn1` (stereo not drawn) [compound 9, ((2-Hydroxypropane-1,3-diyl)bis(1H-1,2,3-triazole-1,4-diyl))bis(phenylmethanol)], in series [1], the “SI (murine) proma” value was 2.31.
Regarding `OC(c1ccccc1)c1cn(Cc2ccccc2)nn1` (stereo not drawn) [compound 4], the “SI (murine) proma” value in series [1] is recorded as 7.51.
Same read-out and setting: the figure for `OC(Cn1cc(C(=NNc2nc3ccccc3s2)c2ccccc2)nn1)Cn1cc(C(=NNc2nc3ccccc3s2)c2ccccc2)nn1` (stereo not drawn) [12c, 1,3-Bis(4-((2-(benzo[d]thiazol-2-yl)hydrazineylidene)(phenyl)methyl)-1H-1,2,3-triazol-1-yl)propan-2-ol] is 2.66; for `Cc1ccc(-c2cn(CC(O)Cn3cc(-c4ccc(C)cc4)nn3)nn2)cc1` [8c, 1,3-Bis(4-(p-tolyl)-1H-1,2,3-triazol-1-yl)propan-2-ol] it is 2.43.
